Compound potency records, mixed from different reports. Data source: NIAID ChemDB in PubChem.

Shared fields: whole-cell or culture tests; organism: Herpes simplex virus 1; endpoint: EC50

Rows are shuffled and stem from different studies.

smiles | cells | strain | method | result
Cc1cc(C2CCCCC2)n(O)c(=O)c1 | VERO | Clinical isolate | plaque count | 0.27 µM
CCCCCCCCCCC#Cc1c[nH]c(=O)[nH]c1=O | HEL | KOS | cytopathic effect | >40 µM
Cc1cc(C)c(OC(=O)c2ccc(Cl)cc2)c(=O)c(C)c1 | VERO | Clinical isolate | plaque count | 1.09 µM
O=c1[nH]c(=O)n([C@H]2C[C@H](O)[C@@H](CO[P@]3(=O)OCc4cccc(-c5ccccc5)c4O3)O2)cc1/C=C/Br | VERO | KUPKA (TK+) | plaque count | 0.26 µg/mL
Nc1ncnc2c1ncn2[C@@H]1O[C@H](COP(=O)(O)O[C@@H]2[C@H](O)[C@@H](COP(=O)(O)OP(=O)(O)OC[C@@H]3OC(O)[C@H](O)[C@H](O)[C@H]3O)O[C@H]2n2cnc3c(N)ncnc32)[C@@H](O)[C@H]1O | PRK | - | cytopathic effect | >200 µg/mL
CO[C@H](CO)[C@@H](O)CCn1ccc(N)nc1=O | E6SM | McIntyre | cytopathic effect | >400 µg/mL
C#Cc1cnc(C(=O)c2ccccc2)nc1C(=O)c1ccccc1 | VERO | - | plaque count | >100 µM
C/C1=C\C=C\C2(C)C=C(CO[C@H]3O[C@H](CO)[C@H](O)[C@H](O)[C@H]3O)C(C)CC23OC([O-])C(C3=O)C(O)/C=C/C2(C)C=C(C=O)C(C)CC23OC([O-])C(C3=O)C(O)/C(C)=C/C=C/C2C=C(CO[C@H]3O[C@H](CO)[C@H](O)[C@H](O)[C@H]3O)C(C)CC23OC([O-])C(C3=O)C(O)/C=C/C2(C)C=C(C=O)C(C)CC23OC([O-])C(C3=O)C1O | VERO | KOS | cytopathic effect | 11 µg/mL
Nc1nc2c(ncn2OCC2COP(=O)(O)CO2)c(=O)[nH]1 | MRC-5 | SC16 | cytopathic effect | 32 µg/mL
Nc1ncnc2c1ncn2/C=C1\[C@H](CO)C1(F)F | BSC-1 | - | ELISA | 70 µM
NC(=O)c1cncc([C@@H]2O[C@H](CO)[C@@H](O)[C@@H]2O)c1 | E6SM | KOS | cytopathic effect | ≥100 µg/mL
CCCCCC#Cc1c[nH]c(=O)[nH]c1=O | HEL | KOS | cytopathic effect | >200 µM
CO[C@H](CO)[C@@H](O)CCn1cc(C)c(=O)[nH]c1=O | E6SM | F | cytopathic effect | >400 µg/mL
NC(=O)c1cncc([C@H]2O[C@H](CO)[C@H](O)[C@@H]2O)c1 | E6SM | KOS | cytopathic effect | ≥100 µg/mL
Nc1nc2c(ncn2COCCO)c(=O)[nH]1 | - | KOS | cytopathic effect | 0.5 µg/mL
NC(=O)c1cncc([C@H]2O[C@H](CO)[C@@H](O)[C@@H]2O)c1 | E6SM | KOS | cytopathic effect | ≥100 µg/mL
Nc1ncnc2c1ncn2[C@@H]1O[C@H](COP(=O)([O-])OP(=O)([O-])OC[C@@H]2OC(O)[C@H](O)[C@H](O)[C@H]2O)[C@@H](O)[C@H]1O | PRK | - | cytopathic effect | 15 µg/mL
CCCCC#Cc1c[nH]c(=O)[nH]c1=O | HEL | KOS | cytopathic effect | >200 µM
Nc1ncnc2c1ncn2CC[C@H](O)CCO | E6SM | F | cytopathic effect | >400 µg/mL
CC(=O)NC1C(O)OC(CO)C(O)C1OC1OC(C(=O)[O-])C(OC2OC(CO)C(O)C(OC3OC(C(=O)[O-])C(O)C(O)C3O)C2NC(C)=O)C(O)C1O.[Na+].[Na+] | - | KOS | - | >400 µg/mL
C#Cc1c[nH]c(=O)[nH]c1=O | VERO | - | plaque count | >100 µM
Nc1ncnc2c1ncn2OCC(CO)OCP(=O)(O)O | MRC-5 | SC16 | cytopathic effect | >310 µg/mL
CC(C)=CCc1ccc(O)c(=O)cc1C(C)C | HFF | Clinical isolate | plaque count | 0.74 µM
CCCCCCCC#Cc1c[nH]c(=O)[nH]c1=O | HEL | KOS | cytopathic effect | >40 µM
Cc1nc2ccc(Br)cc2c(=O)n1-c1nnc(-c2cccc(Cl)c2Cl)c(N)n1 | E6SM | KOS ACV (TK-) | cytopathic effect | >3.2 µg/mL
Cc1cn([C@@H]2O[C@H](CO)[C@H]2CO)c(=O)[nH]c1=O | HFF | 11893 (TK altered) | plaque count | 82 µg/mL
COc1cccc2c1C(=O)c1c(O)c3c(c(O)c1C2=O)C[C@@](O)(C(C)=O)C[C@@H]3O[C@H]1C[C@H](N(C)C)[C@H](O)[C@H](C)O1 | VERO | - | virus yield | >1 µM
O=c1[nH]c(=O)n([C@H]2C[C@H](O)[C@@H](CO)O2)cc1I | PRK | McIntyre | cytopathic effect | 0.1 µg/mL
O=c1[nH]c(=O)n([C@H]2C[C@H](O)[C@@H](COP3(=O)OCc4cccc(-c5ccccc5)c4O3)O2)cc1/C=C/Br | VERO | KUPKA (TK+) | plaque count | 0.26 µg/mL
COc1ncc(C#C[Si](C)(C)C)c(OC)n1 | VERO | - | plaque count | >100 µM
O=c1[nH]c(=O)n([C@H]2C[C@H](O)[C@@H](COP3(=O)OCc4ccc5ccccc5c4O3)O2)cc1/C=C/Br | VERO | KUPKA (TK+) | plaque count | 0.25 µg/mL
Nc1ccn(CC[C@H](O)CCO)c(=O)n1 | E6SM | VMW1837 (TK-) | cytopathic effect | >400 µg/mL
CCc1nc(-n2c(C)nc3ccc(Br)cc3c2=O)nc(N)c1-c1ccc(Cl)cc1 | E6SM | KOS ACV (TK-) | cytopathic effect | >16 µg/mL
C#Cc1cnc(OC(=O)c2ccccc2)nc1OC(=O)c1ccccc1 | VERO | - | plaque count | >100 µM
C/C1=C\C=C\C2(C)C=C(CO)C(C)CC23OC([O-])C(C3=O)C(O)/C=C/C2(C)C=C(CO)C(C)CC23OC([O-])C(C3=O)C(O)/C(C)=C/C=C/C2C=C(CO)C(C)CC23OC([O-])C(C3=O)C(O)/C=C/C2(C)C=C(CO)C(C)CC23OC([O-])C(C3=O)C1O | VERO | KOS | cytopathic effect | 20 µg/mL
CO[C@H]1C[C@H](n2cc(/C=C/Br)c(=O)[nH]c2=O)O[C@@H]1COP1(=O)OCc2cccc(C)c2O1 | VERO | KUPKA (TK+) | plaque count | 16.7 µg/mL
Cc1nc(N(C)C(=O)Cc2ccc(-c3ccccn3)cc2)sc1S(N)(=O)=O | VERO | KT3 | plaque count | 0.04 µM
COc1cc(Cc2cnc(-n3c(-c4ccccc4)nc4ccc(Br)cc4c3=O)nc2N)cc(OC)c1OC | E6SM | KOS | cytopathic effect | 48 µg/mL
O=c1[nH]c(=O)n([C@H]2C[C@H](O)[C@@H](COP3(=O)OCc4c(ccc5ccccc45)O3)O2)cc1/C=C/Br | VERO | KUPKA (TK+) | plaque count | 0.15 µg/mL
C/C1=C\C=C\C2(C)C=C(CO)C(C)CC23OC([O-])C(C3=O)C(O)/C=C/C2(C)C=C(C=O)C(C)CC23OC([O-])C(C3=O)C(O)/C(C)=C/C=C/C2C=C(CO)C(C)CC23OC([O-])C(C3=O)C(O)/C=C/C2(C)C=C(C=O)C(C)CC23OC([O-])C(C3=O)C1O | VERO | KOS | cytopathic effect | 92 µg/mL
CCOC(=O)CC1OP(=O)(OC[C@H]2O[C@@H](n3cc(/C=C/Br)c(=O)[nH]c3=O)C[C@@H]2O)Oc2cccc(Cl)c21 | VERO | KUPKA (TK+) | plaque count | 0.19 µg/mL
N#Cc1cncc([C@H]2O[C@H](CO)[C@@H](O)[C@@H]2O)c1 | E6SM | KOS | cytopathic effect | ≥100 µg/mL
CCOc1ccc(-c2c3cc(O)c(=O)cc-3oc3cc(O)c(O)cc23)cc1 | HFF | Clinical isolate | plaque count | 0.32 µM

The first 6 rows once more:

| smiles | cells | strain | method | result |
|---|---|---|---|---|
| Cc1cc(C2CCCCC2)n(O)c(=O)c1 | VERO | Clinical isolate | plaque count | 0.27 µM |
| CCCCCCCCCCC#Cc1c[nH]c(=O)[nH]c1=O | HEL | KOS | cytopathic effect | >40 µM |
| Cc1cc(C)c(OC(=O)c2ccc(Cl)cc2)c(=O)c(C)c1 | VERO | Clinical isolate | plaque count | 1.09 µM |
| O=c1[nH]c(=O)n([C@H]2C[C@H](O)[C@@H](CO[P@]3(=O)OCc4cccc(-c5ccccc5)c4O3)O2)cc1/C=C/Br | VERO | KUPKA (TK+) | plaque count | 0.26 µg/mL |
| Nc1ncnc2c1ncn2[C@@H]1O[C@H](COP(=O)(O)O[C@@H]2[C@H](O)[C@@H](COP(=O)(O)OP(=O)(O)OC[C@@H]3OC(O)[C@H](O)[C@H](O)[C@H]3O)O[C@H]2n2cnc3c(N)ncnc32)[C@@H](O)[C@H]1O | PRK | - | cytopathic effect | >200 µg/mL |
| CO[C@H](CO)[C@@H](O)CCn1ccc(N)nc1=O | E6SM | McIntyre | cytopathic effect | >400 µg/mL |

An empty or dashed field is not shown. ECn: concentration that inhibits the pathogen or its effect by n%.